Measured values from several laboratories, pooled; numbers as filed in NIAID ChemDB.

All rows: toxicity to cultured cells; cells: MT-4; method: MTT; measure: CC50

Conditions beyond the fields shown may differ between rows. CCn: concentration that lowers growth or viability of the cells by n%.

structure,value
Cc1cn([C@H]2C[C@H](N=[N+]=[N-])[C@@H](COC(=O)NCCSC(=O)OC[C@H]3O[C@@H](n4cc(C)c(=O)[nH]c4=O)C[C@@H]3N=[N+]=[N-])O2)c(=O)[nH]c1=O,>100 µM
Cc1cn([C@H]2C=C[C@@H](COC(=O)CCNC(=O)C(=O)/C=C(\O)c3cccn3Cc3ccc(F)cc3)O2)c(=O)[nH]c1=O,>10 µM
O=C(Cc1ccc(CC(=O)NCCCn2ccnc2)cc1)NCCCn1ccnc1,>306 µM
Cc1cc(C)cc(NC(=O)CN2CCC(Nc3nccc(Oc4c(C)cc(C#N)cc4C)n3)CC2)c1,2.311 µM
Cc1c(C(C)(C)C)s/c(=N\S(=O)(=O)c2cc(Cl)ccc2[N+](=O)[O-])n1C,22 µM
COC(=O)[C@@H](Cc1ccc(O)c(O)c1)OC(=O)/C=C/c1ccc(O)c(O)c1/C=C/c1ccc(O)c(O)c1,6.96 µg/mL
O=[N+]([O-])c1cccc(/C=N/c2nc3ccccc3s2)c1,60 µM
C=C1[C@H](CO)[C@@H](O)C[C@@H]1n1cnc2c(=O)[nH]c(N)nc21,>4.59 µM
O=C(CNC(=O)C(=O)/C=C(\O)c1cccn1Cc1ccc(F)cc1)OC[C@@H]1CC[C@H](n2ccc(=O)[nH]c2=O)O1,>10 µM
Nc1ccc(-c2nc3ccccc3c(=O)[nH]2)cc1,238.1 µM
Cc1c(C(C)C)s/c(=N\S(=O)(=O)c2cc(Br)ccc2C#N)n1C,>25 µM
Cc1cc(C)c(Nc2nc(NC3CCN(Cc4cccnc4)CC3)nc3nc[nH]c23)c(C)c1,132 µM
c1cc2cc(NCCNC3=NCCN3)ccc2[nH]1,88.57 µM
Cc1c(C(C)(C)C)s/c(=N\S(=O)(=O)c2cc(Cl)ccc2N)n1C,>25 µM
Cc1c(Sc2ccccc2)n(COCCO)c(=O)[nH]c1=O,399 µM
O=c1[nH]cnc2c1ncn2[C@H]1CC[C@@H](CO)O1,>100 µM
COc1ccc(Cn2cc(CSc3nc(Cc4c(Cl)cccc4Cl)c(I)c(=O)[nH]3)nn2)cc1,75.91 µM
Cc1cc(C#N)cc(C)c1Oc1ccnc(NC2CCN(CC(=O)Nc3ccc(O)cc3)CC2)n1,2.18 µM
O=c1[nH]c(-c2ccc(O)c(O)c2O)nc2ccccc12,9.2 µM
O=C(Cc1ccc(CNCCCN2CCCCC2)cc1)NCCCN1CCCCC1,>60.29 µM
O=C1/C(=C/c2ccc([N+](=O)[O-])c(O)c2)CNC/C1=C\c1ccc([N+](=O)[O-])c(O)c1,1.2 µM
Cc1c(Cc2c(Cl)cccc2Cl)nc(SCc2cn(Cc3ccc(S(N)(=O)=O)cc3)nn2)[nH]c1=O,95.49 µM
Cc1c(Cc2c(Cl)cccc2Cl)nc(S(=O)(=O)Cc2ccc(Br)cc2)[nH]c1=O,>50 µM
Cc1cc(C#N)cc(C)c1Oc1ccnc(NC2CCN(CC(=O)Nc3cccc(F)c3)CC2)n1,1.412 µM
c1cc(CN2CCCNCCNCCCNCC2)ccc1CN1CCCNCCNCCCNCC1,>1 µM
Cc1cn([C@H]2C=C[C@@H](CO)O2)c(=O)[nH]c1=O,≥100 µM
CC1CCCCN1CCCNCc1ccc(CC(=O)NCCCN2CCCCC2)cc1,>58.32 µM
NC(N)=NCCCNc1ccc2[nH]ccc2c1.O=S(O)O,38.03 µM
O=c1[nH]cnc2c1ncn2[C@H]1CC[C@@H](CO)O1,>212 µM
Cc1cn(C2CC(N=[N+]=[N-])C(COC(=O)c3cn4c5c(c(N6CCN(C)CC6)c(F)cc5c3=O)OCC4C)O2)c(=O)[nH]c1=O,105 µM
O=C1/C(=C/c2ccc(O)c([N+](=O)[O-])c2)CNC/C1=C\c1ccc(O)c([N+](=O)[O-])c1,11 µM
CO[C@@H]1C=C[C@@]23c4cc5c(cc4[C@H](O)N(C[C@@H]2O)[C@H]3C1)OCO5,1 µg/mL
O=c1[nH]c(-c2ccc3[nH]ncc3c2)nc2ccccc12,42.6 µM
Cc1cn([C@H]2C[C@H](N=[N+]=[N-])[C@@H](CO)O2)c(=O)[nH]c1=O,326 µM
COc1cc(C=Nc2nsc3ccccc23)ccc1O,6 µM
c1ccc2c(c1)ncc1cc3c(cc12)OCO3,7.5 µg/mL
Cc1c(Cc2c(F)cccc2F)nc(SCc2ccc(C(C)C)cc2)[nH]c1=O,>62 µM
CCNC(N)=NCCNc1ccc2[nH]ccc2c1,47.28 µM
O=C(/C=C/c1ccc(O)c2c1[C@H](C(=O)O)[C@@H](c1ccc(O)c(O)c1)O2)O[C@H](Cc1ccc(O)c(O)c1)C(=O)O,32.52 µg/mL
CCn1cc(C(=O)O)c(=O)c2cc(F)c(N3CCN(Cc4cn(C5CC(N=[N+]=[N-])C(CO)O5)c(=O)[nH]c4=O)C(C)C3)c(F)c21,>324 µM
CCCCOc1ccc(CSc2nc(Cc3c(Cl)cccc3Cl)c(C)c(=O)[nH]2)cc1,3.1 µM
Oc1cc(O)cc(/C=C/c2ccc(O)c(O)c2)c1,>333 µM
CC1CCCCN1CCCCNCc1ccc(CNCCCCN2CCCCC2C)cc1,>56.47 µM
Clc1ccccc1/C=N/c1nc2ccccc2s1,>100 µM
Cc1cn([C@H]2C[C@@H](N=[N+]=[N-])[C@@H](CO)O2)c(=O)[nH]c1=O,>93 µM
CCc1c(Sc2ccccc2)nc(SCC(=O)c2ccc(OC)cc2)[nH]c1=O,181 µM
NC(=O)c1ccc(Cn2cc(CSc3nc(Cc4cccc5ccccc45)c(I)c(=O)[nH]3)nn2)cc1,88.01 µM
Cc1cc(C#N)cc(C)c1Oc1ccc(N)c(NC2CCN(Cc3ccc(C(N)=O)cc3)CC2)n1,27 µM
Cc1cn(C2CC(N=[N+]=[N-])C(COC(=O)c3cn(C4CC4)c4c(F)c(N5CC(C)N(C(=O)OCc6ccccc6)C(C)C5NC(=O)OCc5ccccc5)c(F)cc4c3=O)O2)c(=O)[nH]c1=O,34.05 µM
c1cn(CCCNCCc2ccc(CCNCCCn3ccnc3)cc2)cn1,>328 µM
C/C(=N\NC(N)=S)c1nc2ccc(Cl)cc2[nH]1,1.96 µg/mL
CCc1c(Sc2cccc3ccccc23)nc(SCC(=O)c2ccc(F)cc2F)[nH]c1=O,41.03 µM
c1cc(CNCCCN2CCOCC2)ccc1CNCCCN1CCCC1,>66.7 µM
Cc1cn([C@H]2C[C@H](N=[N+]=[N-])[C@@H](CO)O2)c(=O)[nH]c1=O,>94 µM
O=C(CCNC(=O)C(=O)/C=C(\O)c1cccn1Cc1ccc(F)cc1)OC[C@@H]1CC[C@H](n2ccc(=O)[nH]c2=O)O1,>10 µM
Cc1cc(C#N)cc(C)c1Oc1ccc([N+](=O)[O-])c(NC2CCN(Cc3ccc(C(N)=O)cc3)CC2)n1,27 µM
Cc1c(C(C)C)s/c(=N\S(=O)(=O)c2cc(F)ccc2C#N)n1C,>25 µM
Cc1cn([C@H]2C=C[C@@H](COC(=O)CNC(=O)C(=O)/C=C(\O)c3cccn3Cc3ccc(F)cc3)O2)c(=O)[nH]c1=O,>10 µM
Cc1cc(C#N)cc(C)c1Oc1ccc(N)c(NC2CCN(Cc3ccc(S(N)(=O)=O)cc3)CC2)n1,24 µM
Cc1ccc(NC(=O)CN2CCC(Nc3nccc(Oc4c(C)cc(C#N)cc4C)n3)CC2)cc1C,1.506 µM
c1cc(CNCCCN2CCOCC2)ccc1CCNCCCN1CCOCC1,>61.79 µM
O=C(O)C(=O)CC(=O)c1cc(OCc2ccccc2)cc(OCc2ccccc2)c1,>10 µM
O=C(/C=C/c1ccc(O)c2c1[C@H](C(=O)O)[C@H](c1ccc(O)c(O)c1)O2)O[C@H](Cc1ccc(O)c(O)c1)C(=O)O,86.41 µg/mL
Cc1cn([C@H]2C[C@H](N=[N+]=[N-])[C@@H](CO)O2)c(=O)[nH]c1=O,68.5 µM
Cc1cc(C)c(Nc2nc(NC3CCN(Cc4cccc(C#N)c4)CC3)nc3nc[nH]c23)c(C)c1,25.4 µM
NCCNc1ccc2[nH]ccc2c1,252 µM
COc1ccc(C=Nc2nsc3ccc(C)cc23)cc1,5 µM
Cc1c(Cc2c(F)cccc2F)nc(SCc2ccc(C#N)cc2)[nH]c1=O,>65 µM
COc1c(N2CCN(Cc3cn(C4CC(N=[N+]=[N-])C(CO)O4)c(=O)[nH]c3=O)C(C)C2)c(F)cc2c(=O)c(C(=O)O)cn(C3CC3)c12,190 µM
Cc1cc(C)c(Nc2nc(NC3CCN(Cc4ccncc4)CC3)nc3nc[nH]c23)c(C)c1,141 µM
O=c1[nH]cnc2c1ncn2[C@H]1CC[C@@H](CO)O1,>50 µg/mL
CO[C@@H]1C=C[C@@]23c4cc5c(cc4CO[C@@]2(O)CN(C)[C@H]3C1)OCO5,7.5 µg/mL
Cc1cc(C#N)cc(C)c1Oc1nc(Nc2ccc(C#N)cc2)nc(N)c1Br,>4.595 µM
COc1ccc(Cn2cc(CSc3nc(Cc4c(Cl)cccc4Cl)c(C)c(=O)[nH]3)nn2)cc1,28.98 µM
O=C1/C(=C/c2ccc([N+](=O)[O-])c(O)c2)CN(Cc2ccccc2)C/C1=C\c1ccc([N+](=O)[O-])c(O)c1,3.5 µM
CC(C)c1s/c(=N\S(=O)(=O)c2cc(Cl)ccc2O)n(C)c1Cl,>25 µM
Cc1cc(C)c(Nc2nc(NC3CCN(Cc4ccccc4)CC3)nc3nc[nH]c23)c(C)c1,25.95 µM
Cc1ccccc1Cn1cc(CSc2nc(Cc3cccc4ccccc34)c(C)c(=O)[nH]2)nn1,24.01 µM
CCOC(=O)C1C/C(=C\c2ccc(O)c(O)c2)C(=O)/C(=C/c2ccc(O)c(O)c2)C1,5 µM
Cc1cc(S(N)(=O)=O)ccc1NC(=O)CN1CCC(Nc2nccc(Oc3c(C)cc(C#N)cc3C)n2)CC1,1.637 µM

Repeating the final 11 entries:

structure	value
Cc1cc(C)c(Nc2nc(NC3CCN(Cc4ccncc4)CC3)nc3nc[nH]c23)c(C)c1	141 µM
O=c1[nH]cnc2c1ncn2[C@H]1CC[C@@H](CO)O1	>50 µg/mL
CO[C@@H]1C=C[C@@]23c4cc5c(cc4CO[C@@]2(O)CN(C)[C@H]3C1)OCO5	7.5 µg/mL
Cc1cc(C#N)cc(C)c1Oc1nc(Nc2ccc(C#N)cc2)nc(N)c1Br	>4.595 µM
COc1ccc(Cn2cc(CSc3nc(Cc4c(Cl)cccc4Cl)c(C)c(=O)[nH]3)nn2)cc1	28.98 µM
O=C1/C(=C/c2ccc([N+](=O)[O-])c(O)c2)CN(Cc2ccccc2)C/C1=C\c1ccc([N+](=O)[O-])c(O)c1	3.5 µM
CC(C)c1s/c(=N\S(=O)(=O)c2cc(Cl)ccc2O)n(C)c1Cl	>25 µM
Cc1cc(C)c(Nc2nc(NC3CCN(Cc4ccccc4)CC3)nc3nc[nH]c23)c(C)c1	25.95 µM
Cc1ccccc1Cn1cc(CSc2nc(Cc3cccc4ccccc34)c(C)c(=O)[nH]2)nn1	24.01 µM
CCOC(=O)C1C/C(=C\c2ccc(O)c(O)c2)C(=O)/C(=C/c2ccc(O)c(O)c2)C1	5 µM
Cc1cc(S(N)(=O)=O)ccc1NC(=O)CN1CCC(Nc2nccc(Oc3c(C)cc(C#N)cc3C)n2)CC1	1.637 µM